The list shows a part of the results, in another mix than the full data. The source made the active and inactive calls.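 How the source made its calls: active means inhibition above the screen-wide mean plus twice its standard deviation (cut at about 32% in these data); inactive means the rest.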

This assay concerns Candida albicans drug resistance protein 1 (Cdr1) expressed in S. cerevisiae. Put plainly: inhibitors of Candida albicans Cdr1 efflux pump, confirmation, S. cerevisiae AD/CaCDR1, flow cytometry, cherry pick 1, singleplex (AID 588522). The conditions noted are these: S. cerevisiae AD/CaCDR1, Nile Red efflux, at 10 µM, stronger effect = higher value. On the technique in general: A flow cytometer gives signals particle by particle.
By inhibition is commonly meant the drop in the measured response relative to a control, in per cent. Turning to `O=P(Nc1nccs1)(c1ccccc1)c1nc2ccccc2s1` (stereo unspecified), the inhibition is inactive: -0.08%.

Source of the values: PubChem BioAssay AID588522 (NMMLSC, 2011).
